{"source": "paper PMC7114863", "about": "(Journal of Hepatology, 2009)", "key": {"BILN-2061^res replicon": {"tested_on": "BILN-2061^res replicon", "assay": "Anti-HCV assay, BILN-2061 resistant replicon"}, "2′-C-MeCyt^res replicon": {"tested_on": "2′-C-MeCyt^res replicon", "assay": "Anti-HCV assay, 2′-C-MeCyt resistant replicon"}, "[1]": {"tested_on": "4′-Azidocytidine^res replicon", "assay": "Anti-HCV assay, 4′-azidocytidine resistant replicon"}, "[2]": {"tested_on": "VX-950^res and BILN-2061^res replicon", "assay": "Anti-HCV assay, VX-950 and BILN-2061 double resistant replicon", "settings": "mean ± SD"}}, "data": [{"substance": "IFNα 2b: recombinant IFNα 2b (intron® A) purchased from Schering Plough", "values": [{"measurement": "EC50, BILN-2061^res", "setting": "BILN-2061^res replicon; mean ± SD", "value": "1.2 ± 0.83", "unit": "IU/ml"}, {"measurement": "fold resistance, BILN-2061^res", "setting": "BILN-2061^res replicon; versus wild-type replicon", "value": "(5)"}, {"measurement": "EC50, 2′-C-MeCyt^res", "setting": "2′-C-MeCyt^res replicon; mean ± SD", "value": "0.80 ± 0.46", "unit": "IU/ml"}, {"measurement": "fold resistance, 2′-C-MeCyt^res", "setting": "2′-C-MeCyt^res replicon; versus wild-type replicon", "value": "(3.3)"}, {"measurement": "EC50, 4′-Azidocytidine^res", "setting": "[1]; mean ± SD", "value": "1.4 ± 0.29", "unit": "IU/ml"}, {"measurement": "fold resistance, 4′-Azidocytidine^res", "setting": "[1]; versus wild-type replicon", "value": "(5.8)"}, {"measurement": "EC50, VX-950^res and BILN-2061^res", "setting": "[2]", "value": "0.62 ± 0.37", "unit": "IU/ml"}]}]}
